Test [1] addresses HIV-1 YU2 gp120 (HIV-1 strain YU2), P35961. Kind of test: SPR; peptide over immobilized YU2 gp120. In general terms: SPR reads the build-up and loss of mass on a sensor chip optically.
Test [2] has the same target. Kind of test: SPR (Biacore 3000); peptide over immobilized gp120; reference 12p1 on YU2 gp120.
The target is the same in test [3]. In words: SPR competition: 100 nM YU2 gp120 with HNG-156 over immobilized IgG b6 (CM5 chip); blocked ligand: b6.

In the case of RINNIPWSEAMM (modifications not checked) [HNG-124], in test [1], the Kd (usually the equilibrium constant for the complex coming apart) came to 9 nM.
Turning to RINNIPWSEAMM (modifications not checked) [HNG-156], in test [2], the orders of magnitude higher affinity than 12p1 (orders of magnitude) stood at 3. Besides, the IC50 (read off the curve) in test [3] was 60 nM.

These data come from patent US20100216721A1.
